Pooled drug test results. Numbers come from NIAID ChemDB, via PubChem.

Common to all: whole-cell or culture tests; organism: HIV-1; endpoint: fold resistance

Fold resistance: result on the changed form divided by that on wild type. An empty or dashed field is not shown. Neighbouring rows are from separate reports.

structure	strain or isolate	cells	mutations	method	conditions	value
O=c1[nH]cnc2c1ncn2[C@H]1CC[C@@H](CO)O1	RTMC (RT-V 75A)	CD4+HELA + HeLa	RT-V75A	plaque count		2
Cc1cn([C@H]2C[C@H](N=[N+]=[N-])[C@@H](CO)O2)c(=O)[nH]c1=O	HXB2-D184+294 (RT M184V P294S)	MT-4	RT-M184V P294S	RT activity		1.4
CC(C)(c1ncc(-c2ccc(Cl)cc2)o1)N1CCN(C[C@@H](O)C[C@@H](Cc2nnc(-c3ccccc3)o2)C(=O)N[C@H]2c3ccccc3OC[C@H]2O)[C@H](C(=O)NCC(F)(F)F)C1	K-60 Clinical isolate	MT-4	PR-L10I M46I I54V Q58E L63P I64V V77I V82F I84V L90M I93L	p24		1
c1ccc2c(c1)sc1nccn12	IIIB(CALO-R(II))	CEM + CEM-SS	RT-V90I T139I P225S	cytopathic effect / XTT		2
Nc1ccn([C@H]2CC[C@@H](CO)O2)c(=O)n1	JF18(RT-D67N T215Y)	HELA-CD4+	RT-D67N T215Y	plaque count		1.29
CCc1c(C(=O)c2cc(C)cc(C)c2)n(CC2CC=CC2)c(=O)[nH]c1=O	NL4-3	CEM + CEM-SS	RT-A98G	cytopathic effect / XTT		0.3
O=[N+]([O-])c1ccccc1S(=O)(=O)c1ccccc1	IIIB(N119(III))	CEM + CEM-SS	RT-Y181C	cytopathic effect / XTT		>60
O=c1[nH]cnc2c1ncn2[C@H]1CC[C@@H](CO)O1	Recombinant	PBMC	RT-M184V	p24		2.5
Cc1ccnc2c1NC(=O)c1cccnc1N2C1CC1	A2(RT-L74V G190E)	H9	RT-L74V G190E	p24		>111
Cc1cn([C@H]2C[C@H](N=[N+]=[N-])[C@@H](CO)O2)c(=O)[nH]c1=O	NL4-3	CEM + CEM-SS	RT-V106I	XTT		3
CCN[C@H]1CO[C@@H]2OCC[C@H](OC(=O)N[C@@H](Cc3cccc(OC)c3)[C@H](O)CN(CC(C)C)S(=O)(=O)c3ccc4nc(NC(C)C)sc4c3)[C@@H]21	NL4-3	MT-4	L10F L33I M36I M46I I54V K55R I62V L63P A71V G73S V82T	p24 / luminescence		0.9
CCc1c(Sc2ccccn2)n(COCc2ccccc2)c(=O)[nH]c1=O	NL4-3	CEM + CEM-SS	RT-Y181C	cytopathic effect / XTT		69.4
COC(=O)N[C@H](C(=O)N[C@@H](Cc1ccccc1)[C@@H](O)CN(Cc1ccc(-c2ccccn2)cc1)NC(=O)[C@@H](NC(=O)OC)C(C)(C)C)C(C)(C)C	NL4-3	MT-4	L10I M46L I54V V82A	p24 / luminescence		11
Cc1cc(Cl)cc(S(=O)(=O)c2cccc(N)c2C#N)c1		HeLa + HELA CD4+	RT-K103N P225H	β-galactosidase		2110
Nc1ccn([C@H]2CC[C@@H](CO)O2)c(=O)n1	HXB2	CD4+HELA + HeLa	RT-L74V	plaque count		18.3
Cc1cn([C@H]2C[C@H](N=[N+]=[N-])[C@@H](CO)O2)c(=O)[nH]c1=O	BCF11	PBMC	RT-A98G K103R			1
Nc1nc(NC2CC2)c2ncn([C@H]3C=C[C@@H](CO)C3)c2n1		MT-2	RT-delta67 K103N	p24		15
CC(C)CN(C[C@@H](O)[C@H](Cc1ccccc1)NC(=O)O[C@H]1CCOC1)S(=O)(=O)c1ccc(N)cc1	IIIB	MT-2	I401T	p24 / ELISA		0.8
O=C1O[C@H]2[C@@H]3OC(=O)c4cc(O)c(O)c(O)c4-c4c(cc(O)c(O)c4O)C(=O)OC[C@H]2O[C@@H](OC(=O)c2cc(O)c(O)c(O)c2)[C@@H]3OC(=O)c2cc(O)c(O)c3c2[C@@H]2C1=CC(=O)[C@](O)(O3)C2(O)O	NNRTI-resistant (RT K103N) ARP1010	MAGI	RT-K103N			1.12
CC(C)Oc1ccc(Cc2ccccc2)cc1C(=O)CC(=O)C(=O)O			INTG-N155S			10
CC(C)CN(C[C@@H](O)[C@H](Cc1ccccc1)NC(=O)[C@H](CC(N)=O)NC(=O)c1ccc2ccccc2n1)C(=O)NC(C)(C)C	NL4-3	MT-4	PR-L63P	p24		1
Nc1ccn([C@H]2CC[C@@H](CO)O2)c(=O)n1	Clinical isolate	MT-4	AZT-resistant (RT I50V D67N K70R I135V T215Y)		clinical isolate	1.625
Nc1nc2c(ncn2[C@H]2CO[C@@H](CO)O2)c(=O)[nH]1			RT-S68G Q151M T215Y			~4
O=c1[nH]cnc2c1ncn2[C@H]1CC[C@@H](CO)O1	HXB2-D (RT K65R M184V)	MT-4	RT-K65R M184V	p24		4.89
COc1cc(C(F)(F)F)cc(S(=O)(=O)c2cccc(N)c2C#N)c1		HeLa + HELA CD4+	RT-K103N	β-galactosidase		129
CC(C)=CCN1Cc2cc(Cl)cc3[nH]c(=S)n(c23)C[C@@H]1C	RTMC (RT-Y181C)	HT4 + HT4 LacZ-1	RT-D67N K70R Y181C T215Y K219Q	plaque count		22.7
Cc1cn([C@H]2C[C@H](N=[N+]=[N-])[C@@H](CO)O2)c(=O)[nH]c1=O	NL4-3	CEM + CEM-SS	RT-V179D	cytopathic effect / XTT		1.67
Cc1nnc(C[C@H](C[C@H](O)CN2CCN(Cc3ccc(-c4ccc(Cl)cc4)o3)C[C@H]2C(=O)NCC(F)(F)F)C(=O)N[C@H]2c3ccccc3OC[C@H]2O)o1	Q-60 Clinical isolate	MT-4	PR-L10I N37S R41K M46I I54V I62V L63P A71V V77I V82A L90M I93L	p24		0.49
Cc1ccnc2c1NC(=O)c1cccnc1N2C1CC1	NL4-3	CEM + CEM-SS	RT-A98G	cytopathic effect / XTT		10
CC(C)=CCOc1cc(NC(=S)c2ccoc2C)ccc1Cl	Calanolide A-resistant (RT T139I)	CEM + CEM-SS	RT-T139I	XTT		8
CC(C)=CCOc1cc(NC(=S)c2ccoc2C)ccc1Cl	IIIB	CEM	RT-L100I	cytopathic effect		4
O=C(NCc1ccc(F)cc1)c1nc(N2CCCCS2(=O)=O)c2cccnc2c1O			INTG-N155H			26
O=C(Nc1ccccc1)C1=COCCS1	IIIB	CEM + CEM-SS	RT-Y181C	cytopathic effect / XTT		8
CC(C)CN(C[C@@H](O)[C@H](Cc1ccccc1)NC(=O)O[C@H]1CCOC1)S(=O)(=O)c1ccc(N)cc1	NL4-3	MT-4	PR-D30N M46I A71V	p24		0.5
COc1ccc2c(c1)N(C(=O)OC(C)C)[C@@H](CSC)C(=S)N2	A1(RT-G190E)	H9	RT-G190E	p24		>1430
Cc1ccc(S(=O)(=O)N(CC(C)C)C[C@@H](O)[C@H](Cc2ccccc2)NC(=O)O[C@H]2CO[C@H]3OCC[C@H]32)cc1	IIIB	MT-2	8374-P47 GS-8374-resistant	ATP		5.1
CCOCn1c(Cc2ccccc2)c(C(C)C)c(=O)[nH]c1=O	Q-1 (RT T139K Y181C Y188D/Y)	CEM	RT-T139K Y181C Y188D/Y	cytopathic effect		667
Cc1cc(O)cc(S(=O)(=O)c2cccc(N)c2C#N)c1		HeLa + HELA CD4+	RT-K103N P225H	β-galactosidase		87.3
Cc1ccnc2c1NC(=O)c1cccnc1N2C1CC1	BCF07	PBMC	RT-A98G V106I Y181C			170
Cc1cn([C@@H]2O[C@H](CO[Si](C)(C)C(C)(C)C)C3(OS(=O)(=O)C=C3N)[C@H]2O[Si](C)(C)C(C)(C)C)c(=O)n(C)c1=O	IIIB	CEM	RT-V179D	syncytia		0.88
CCCc1nnc(C[C@H](C[C@H](O)CN2CCN(C(C)(C)c3ncc(-c4ccc(Cl)cc4)o3)C[C@H]2C(=O)NCC(F)(F)F)C(=O)N[C@H]2c3ccccc3OC[C@H]2O)o1	Q-60 Clinical isolate	MT-4	PR-L10I N37S R41K M46I I54V I62V L63P A71V V77I V82A L90M I93L	p24		1
O=c1[nH]cnc2c1ncn2[C@H]1CC[C@@H](CO)O1		MT-2	RT-delta67 K103N	p24		3.5
Cc1cn([C@H]2C[C@H](N=[N+]=[N-])[C@@H](CO)O2)c(=O)[nH]c1=O	D-3 (RT-V108I M184I)	CEM	RT-V108I M184I	cytopathic effect		2
Cc1cc(Br)cc(S(=O)(=O)c2cccc(N)c2C#N)c1		HeLa + HELA CD4+	RT-V106A Y181C	β-galactosidase		44.5
Cc1cn([C@@H]2O[C@H](CO[Si](C)(C)C(C)(C)C)C3(OS(=O)(=O)C=C3N)[C@H]2O[Si](C)(C)C(C)(C)C)c(=O)n(C)c1=O	IIIB	CEM	RT-L100I	cytopathic effect / XTT		2
COc1ccc(S(=O)(=O)N(CC(C)C)C[C@@H](O)[C@H](Cc2ccccc2)NC(=O)O[C@H]2CCO[C@H]3OCC[C@H]32)cc1	NL4-3	MT-4	L10I I54V K20R L24I V32I L33F M36I M46I I54M L63P K70Q V82I I84V L89M	p24 / luminescence		>227
CC(C)=CCOc1cc(NC(=S)c2ccoc2C)ccc1Cl	Q-1 (RT T139K Y181C Y188D/Y)	CEM	RT-T139K Y181C Y188D/Y	cytopathic effect		24
Cc1cn([C@H]2C[C@H](N=[N+]=[N-])[C@@H](CO)O2)c(=O)[nH]c1=O	IIIB	MT-2	K112M K113E V128I M200I H219P	p24 / ELISA		0.4
Fc1cccc(F)c1[C@@H]1SCc2nc3ccccc3n21	IIIB	CEM	RT-D138K	cytopathic effect / XTT		2.06
Cc1cc(S(N)(=O)=O)ccc1NC(=O)COc1ccc(Cl)cc1C(=O)c1cc(Cl)cc(C#N)c1	NNRTI-resistant (RT V108I Y181C)	MAGI	RT-V108I Y181C	β-galactosidase		1.7
CN[C@H]1CO[C@@H]2OCC[C@H](OC(=O)N[C@@H](Cc3ccccc3)[C@H](O)CN(CC(C)C)S(=O)(=O)c3ccc4nc(NC5CC5)sc4c3)[C@@H]21	NL4-3	MT-4	L10I N37D G48V I54V L63P G73C I84V L90M	p24 / luminescence		6.4
Cc1ccnc2c1NC(=O)c1cccnc1N2C1CC1	Oxathiin carboxanilide-resistant RT L100I	CEM + CEM-SS	RT-L100I	XTT		10
Cc1occc1C(=S)Nc1ccc(Cl)c(/C=N/OC(C)(C)C)c1	IIIB	CEM	RT-V106A	syncytia		14.55
Fc1cccc(F)c1[C@H]1SCc2nc3ccccc3n21	IIIB	CEM	RT-Y181C	cytopathic effect / XTT		≥11.1
Nc1ccn([C@H]2CC[C@@H](CO)O2)c(=O)n1	BCF01	PBMC	RT-A98G K103R Y181C			0.133
Cc1cn([C@H]2C[C@H](N=[N+]=[N-])[C@@H](CO)O2)c(=O)[nH]c1=O	Recombinant	PBMC	RT-V75I F77L F116Y Q151M	p24		0.1
CC(C)(C)C(=O)c1sc(C(=O)NCCc2ccccc2)c(O)c1O			INTG-T66I N155S			17
Cc1cn([C@H]2C[C@H](N=[N+]=[N-])[C@@H](CO)O2)c(=O)[nH]c1=O	IIIB	CEM + CEM-SS	RT-Y181C	cytopathic effect / XTT		0.6
CC(C)=CCOc1cc(NC(=S)c2ccsc2C)ccc1Cl	IIIB	CEM	RT-E138K	cytopathic effect		2
CC1=C(C(=O)Nc2ccc(Cl)c(C(=O)OC(C)C)c2)SCCO1	IIIB(THZ-R(I))	CEM + CEM-SS	RT-V108I	cytopathic effect / XTT		15
CC(C)OC(=O)OCOP(=O)(CO[C@H](C)Cn1cnc2c(N)ncnc21)OCOC(=O)OC(C)C	JF4A ddC-resistant (RT T69D)	MT-2	RT-T69D	p24		0.189
Cc1nnc(C[C@H](C[C@H](O)CN2CCN(C(C)(C)c3ncc(-c4ccc(Cl)cc4)o3)C[C@H]2C(=O)NCC(F)(F)F)C(=O)N[C@H]2c3ccccc3OC[C@H]2O)o1	Q-60 Clinical isolate	MT-4	PR-L10I N37S R41K M46I I54V I62V L63P A71V V77I V82A L90M I93L	p24		≤0.032
O=c1[nH]cnc2c1ncn2[C@H]1CC[C@@H](CO)O1	K65R		RT-K65R			7
CC(C)(C)NC(=O)[C@@H]1C[C@@H]2CCCC[C@@H]2CN1C[C@@H](O)[C@H](Cc1ccccc1)NC(=O)[C@H](CC(N)=O)NC(=O)c1ccc2ccccc2n1	NL4-3	MT-4	PR-M46I V82T	p24		1
CCc1c(Sc2ccccn2)n(COCc2ccccc2)c(=O)[nH]c1=O	IIIB HEPT-resistant (IV)	CEM + CEM-SS	RT-P236L	cytopathic effect / XTT		62

A second listing of 9 rows from above:

structure | strain or isolate | cells | mutations | method | conditions | value
CC(C)=CCN1Cc2cc(Cl)cc3[nH]c(=S)n(c23)C[C@@H]1C | RTMC (RT-Y181C) | HT4 + HT4 LacZ-1 | RT-D67N K70R Y181C T215Y K219Q | plaque count |  | 22.7
CC(C)CN(C[C@@H](O)[C@H](Cc1ccccc1)NC(=O)O[C@H]1CCOC1)S(=O)(=O)c1ccc(N)cc1 | NL4-3 | MT-4 | PR-D30N M46I A71V | p24 |  | 0.5
CCc1c(Sc2ccccn2)n(COCc2ccccc2)c(=O)[nH]c1=O | NL4-3 | CEM + CEM-SS | RT-Y181C | cytopathic effect / XTT |  | 69.4
CC(C)(C)C(=O)c1sc(C(=O)NCCc2ccccc2)c(O)c1O |  |  | INTG-T66I N155S |  |  | 17
O=C(Nc1ccccc1)C1=COCCS1 | IIIB | CEM + CEM-SS | RT-Y181C | cytopathic effect / XTT |  | 8
CC(C)=CCOc1cc(NC(=S)c2ccoc2C)ccc1Cl | Q-1 (RT T139K Y181C Y188D/Y) | CEM | RT-T139K Y181C Y188D/Y | cytopathic effect |  | 24
CCN[C@H]1CO[C@@H]2OCC[C@H](OC(=O)N[C@@H](Cc3cccc(OC)c3)[C@H](O)CN(CC(C)C)S(=O)(=O)c3ccc4nc(NC(C)C)sc4c3)[C@@H]21 | NL4-3 | MT-4 | L10F L33I M36I M46I I54V K55R I62V L63P A71V G73S V82T | p24 / luminescence |  | 0.9
CC(C)(C)NC(=O)[C@@H]1C[C@@H]2CCCC[C@@H]2CN1C[C@@H](O)[C@H](Cc1ccccc1)NC(=O)[C@H](CC(N)=O)NC(=O)c1ccc2ccccc2n1 | NL4-3 | MT-4 | PR-M46I V82T | p24 |  | 1
COc1ccc2c(c1)N(C(=O)OC(C)C)[C@@H](CSC)C(=S)N2 | A1(RT-G190E) | H9 | RT-G190E | p24 |  | >1430